A mixed list of measured activities; the numbers were collected in NIAID ChemDB.

Common to all: tests in culture; species: Hepatitis C virus; measure: EC50

Rows are shuffled and stem from different studies. ECn is the concentration giving n% inhibition of infection, replication or growth. a–b is a range or a potency band.

{"smiles": "OCc1nnc(-c2ccc(N3CC(Oc4ccccc4C(F)(F)F)C3)nn2)o1", "read by": "PCR", "strain or isolate": "GT1a", "cell line": "Huh7", "value": "0.0022 µM"}
{"smiles": "C[C@@H](c1ncc(-c2ccc(-c3ncc(-c4cnc([C@H]5CCCN5C(=O)[C@@H](c5ccccc5)N(C)C)[nH]4)cn3)cc2)[nH]1)N(C)C(=O)[C@@H](c1ccccc1)N(C)C", "strain or isolate": "1b", "value": "0.001–0.099 µM"}
{"smiles": "NC(=O)c1cnccc1Nc1nc(-c2cc(Cl)ccc2F)nc2ncccc12", "read by": "replicon", "cell line": "Huh7", "value": "0.76 µM"}
{"smiles": "C[C@H]1CCC[C@H](C)C1n1c(-c2ccco2)nc2cc(C(=O)NC3(C(=O)Nc4ccc(/C=C/C(=O)O)cc4)CCCC3)ccc21", "cell line": "Huh7", "value": "≤5 µM"}
{"smiles": "CC1(C)CC(=O)C2=C(C1)Nc1c(O)cccc1N(C(=O)c1ccc(C(N)=O)cn1)C2c1ccc(OCc2ccccc2)cc1F", "read by": "luciferase / reporter gene / replicon", "strain or isolate": "1b", "value": "5.76 µM"}
{"smiles": "CN(c1ccccc1/C=N/NC(=O)Cc1ccc2c(c1)OCO2)S(=O)(=O)c1ccc(C(F)(F)F)cc1", "read by": "replicon", "cell line": "Huh7", "value": "<5 µM"}
{"smiles": "CCN1CCC[C@@H]1CNC(=O)CCC(=O)N1c2cccc(O)c2NC2=C(C(=O)CC(C)(C)C2)C1c1ccc(OCc2ccccc2)cc1Cl", "read by": "luciferase / reporter gene / replicon", "strain or isolate": "1b", "value": "46.69 µM"}
{"smiles": "COc1cc(CC(=O)N/N=C/c2ccccc2OS(=O)(=O)c2ccc(C(F)(F)F)cc2)cc(OC)c1", "read by": "replicon", "cell line": "Huh7", "value": "<5 µM"}
{"smiles": "Cc1ccc(-n2ncc3c(Nc4cccc(F)c4)ncnc32)c(C)c1", "read by": "replicon", "cell line": "HUH 9B", "value": "1–10 µM"}
{"smiles": "C[C@H]1CCC[C@H](C)C1n1c(-c2ccoc2)nc2cc(C(=O)NC3(C(=O)Nc4ccc(/C=C/C(=O)O)cc4)CCCC3)ccc21", "cell line": "Huh7", "value": "≤5 µM"}
{"smiles": "Nc1ccc2c(Nc3ccncc3F)nc(-c3cc(Cl)ccc3F)nc2n1", "read by": "replicon", "cell line": "Huh7", "value": ">10 µM"}
{"smiles": "COC(=O)N[C@@H](C(=O)N1CCC[C@@H]1c1ncc(-c2ccc(-c3cnc(-c4cnc([C@H]5CCCN5C(=O)[C@H](NC(=O)OC)c5ccccc5)[nH]4)cn3)cc2)[nH]1)c1ccccc1", "strain or isolate": "1b", "value": "0.00001–0.000999 µM"}
{"smiles": "COc1cc(OC)c(CCC2(C3CCCC3)CC(O)=C(Sc3nc4nc(C)cc(C)n4n3)C(=O)O2)cc1Cl", "read by": "replicon", "strain or isolate": "FC", "value": "87 µM"}
{"smiles": "COc1nc(N)nc2c1ncn2[C@@H]1O[C@H](COP(=O)(N[C@@H](C)C(=O)OC(C)C)Oc2ccccc2)[C@@H](O)[C@@]1(C)F", "read by": "replicon", "strain or isolate": "2a", "setting": "7 d", "value": "0.011 µM"}
{"smiles": "Cc1ccc(NC(=O)Nc2ncnc3c2cnn3-c2ccc(C)cc2C)cc1", "read by": "replicon", "cell line": "HUH 9B", "value": "<1 µM"}
{"smiles": "CC1(C)CC(=O)C2=C(C1)Nc1c(O)cccc1NC2c1cccc(Cl)c1", "read by": "luciferase / reporter gene / replicon", "strain or isolate": "1b", "value": "59.13 µM"}
{"smiles": "Fc1ccc(Cl)cc1-c1nc(Nc2ccncc2)c2cccnc2n1", "read by": "replicon", "cell line": "Huh7", "value": "0.77 µM"}
{"smiles": "O=C(N/N=C/c1ccccc1OS(=O)(=O)c1ccc(C(F)(F)F)cc1)c1ccccc1F", "read by": "replicon", "cell line": "Huh7", "value": "5–50 µM"}
{"smiles": "COC(=O)N[C@H](C(=O)N1CCC[C@H]1c1ncc(-c2ccc(-c3ccc(-c4cnc([C@@H]5CCCN5C(=O)[C@H](NC(=O)OC)c5ccccc5)[nH]4)cc3C)nc2)[nH]1)c1ccccc1", "strain or isolate": "1b", "value": "0.00001–0.000999 µM"}
{"smiles": "CC1(C)CC(=O)C2=C(C1)Nc1c(O)cccc1N(C(=O)CC(=O)O)[C@@H]2c1ccc(Oc2ccccc2Br)cc1Cl", "read by": "luciferase / reporter gene / replicon", "strain or isolate": "1b", "value": ">100 µM"}
{"smiles": "Cc1ccc(-n2ncc3c(NC(=O)Nc4ccc(C(F)(F)F)cc4)ncnc32)c(C)c1", "read by": "replicon", "cell line": "HUH 9B", "value": "1–10 µM"}
{"smiles": "C[C@@H](NC(=O)c1ccc2c(c1)nc(-c1ccccc1)n2C1CCCCC1)C(=O)Nc1ccc(/C=C/C(=O)O)cc1", "cell line": "Huh7", "value": "5–50 µM"}
{"smiles": "Cc1ccc(-n2ncc3c(Nc4ccc(OC(F)(F)F)cc4)ncnc32)c(C)c1", "read by": "replicon", "cell line": "HUH 9B", "value": "1–10 µM"}
{"smiles": "O=C(NC1(C(=O)Nc2ccc3[nH]c(=S)sc3c2)CCCC1)c1ccc2c(c1)nc(-c1ccoc1)n2C1CCCCC1", "cell line": "Huh7", "value": "≤5 µM"}
{"smiles": "COc1cccc(CC(=O)N/N=C/c2ccccc2OS(=O)(=O)c2ccc(Oc3ncc(C(F)(F)F)cc3Cl)nc2)c1", "read by": "replicon", "cell line": "Huh7", "value": ">50 µM"}
{"smiles": "OCc1nnc(-c2ccc(N3CCC(Oc4cc(F)ccc4Br)CC3)nn2)o1", "read by": "PCR", "strain or isolate": "GT1a", "cell line": "Huh7", "value": "0.0009 µM"}
{"smiles": "COc1cc(OC)c(CC(=O)N/N=C/c2ccccc2OS(=O)(=O)c2ccc(C(F)(F)F)cc2)c(OC)c1", "read by": "replicon", "cell line": "Huh7", "value": "5–50 µM"}
{"smiles": "O=C(N[C@@H](C(=O)N1CCC[C@H]1c1ncc(-c2ccc(-c3ccc(-c4cnc([C@@H]5CCCN5C(=O)[C@H](NC(=O)C5CC5)c5ccccc5)s4)cc3)cc2)s1)c1ccccc1)C1CC1", "read by": "luciferase / reporter gene", "strain or isolate": "genotype 1b", "mutations": "P58S", "cell line": "Huh7.5", "value": "0.000038 µM"}
{"smiles": "C[C@H](NC(=O)[C@@H](c1ccccc1)N(C)C)c1ncc(-c2ccc(-c3ccc(-c4cnc([C@H]5CCCN5C(=O)[C@@H](c5ccccc5)N(C)C)[nH]4)cn3)cc2)[nH]1", "strain or isolate": "1b", "value": "0.00001–0.000999 µM"}
{"smiles": "O=C(Cc1cccc(Cl)c1)N/N=C/c1ccncc1OS(=O)(=O)c1ccc(C(F)(F)F)cc1", "read by": "replicon", "cell line": "Huh7", "value": "<5 µM"}
{"smiles": "CN(C)[C@@H](C(=O)N1CCC[C@@H]1c1ncc(-c2ccc(-c3ccc(-c4cnc([C@H]5CCCN5C(=O)[C@@H](c5ccccc5)N(C)C)[nH]4)nn3)cc2)[nH]1)c1ccccc1", "strain or isolate": "1b", "value": "0.001–0.099 µM"}
{"smiles": "O=C(Cc1ccccc1)N/N=C/c1ccccc1OS(=O)(=O)c1ccccc1OC(F)(F)F", "read by": "replicon", "cell line": "Huh7", "value": ">50 µM"}
{"smiles": "OCc1ccn2cc(-c3cn(Cc4cc(Cl)c(Cl)c(Cl)c4)nn3)nc2c1", "read by": "PCR", "strain or isolate": "GT1b", "setting": "50% human serum", "cell line": "Huh7", "value": ">40 µM"}
{"smiles": "Cc1ccc(-n2ncc3c(Nc4cccc(-c5cnco5)c4)ncnc32)c(C)c1", "read by": "replicon", "cell line": "HUH 9B", "value": "<1 µM"}
{"smiles": "CNC(=O)c1cnccc1Nc1nc(-c2cc(Cl)ccc2F)nc2nc(NCCN(C)C)ccc12", "read by": "replicon", "cell line": "Huh7", "value": ">10 µM"}
{"smiles": "CC1(C)CC(=O)C2=C(C1)Nc1c(O)cccc1N(C(=O)CCC(=O)N1CCC(N3CCCC3)CC1)C2c1ccc(OCc2ccccc2)cc1Cl", "read by": "luciferase / reporter gene / replicon", "strain or isolate": "1b", "value": "44.65 µM"}
{"smiles": "O=C(N/N=C/c1ccccc1OS(=O)(=O)c1ccc(C(F)(F)F)cc1)c1ccccc1C(F)(F)F", "read by": "replicon", "cell line": "Huh7", "value": "<5 µM"}
{"smiles": "COc1ccc(CN(Cc2ccc(OC)cc2)c2ccc3c(Nc4ccncc4C(=O)O)nc(-c4cc(Cl)ccc4F)nc3n2)cc1", "read by": "replicon", "cell line": "Huh7", "value": ">10 µM"}
{"smiles": "COc1c(-c2ccc3cc(NS(C)(=O)=O)ccc3c2)cc(-n2ccc(=O)[nH]c2=O)cc1C(C)(C)C", "read by": "luciferase", "strain or isolate": "genotype 1a H77", "setting": "40% human plasma", "value": "0.099 µM"}
{"smiles": "Cc1ccc(-n2ncc3c(Nc4ccc(-c5cnco5)cc4)ncnc32)c(C)c1", "read by": "replicon", "cell line": "HUH 9B", "value": "<1 µM"}
{"smiles": "CN(Cc1ccccc1)c1ccc2c(Nc3ccncc3C(=O)O)nc(-c3cc(Cl)ccc3F)nc2n1", "read by": "replicon", "cell line": "Huh7", "value": ">10 µM"}
{"smiles": "COC(=O)N[C@@H](C(=O)N1CCC[C@@H]1C1=NCC(c2cnc(-c3ccc(-c4cnc([C@H]5CCCN5C(=O)[C@H](NC(=O)OC)c5ccccc5)[nH]4)c(F)c3)nc2)=N1)c1ccccc1", "strain or isolate": "1b", "value": "0.00001–0.000999 µM"}
{"smiles": "CCCCc1ccc(Nc2ncnc3c2cnn3-c2ccccc2Cl)cc1", "read by": "replicon", "cell line": "HUH 9B", "value": "1–10 µM"}
{"smiles": "O=C(Cc1ccc(F)c(F)c1F)N/N=C/c1ccccc1OS(=O)(=O)c1ccc(C(F)(F)F)cc1", "read by": "replicon", "cell line": "Huh7", "value": "<5 µM"}
{"smiles": "COC(=O)N[C@@H](C(=O)N1CCC[C@H]1c1ncc(-c2ccc(-c3ccc(-c4cnc([C@@H]5CCCN5C(=O)Cc5cccnc5)[nH]4)cn3)cc2)[nH]1)c1ccccc1", "strain or isolate": "1b", "value": "0.00001–0.000999 µM"}

Again, the opening 4 rows:

{"smiles": "OCc1nnc(-c2ccc(N3CC(Oc4ccccc4C(F)(F)F)C3)nn2)o1", "read by": "PCR", "strain or isolate": "GT1a", "cell line": "Huh7", "value": "0.0022 µM"}
{"smiles": "C[C@@H](c1ncc(-c2ccc(-c3ncc(-c4cnc([C@H]5CCCN5C(=O)[C@@H](c5ccccc5)N(C)C)[nH]4)cn3)cc2)[nH]1)N(C)C(=O)[C@@H](c1ccccc1)N(C)C", "strain or isolate": "1b", "value": "0.001–0.099 µM"}
{"smiles": "NC(=O)c1cnccc1Nc1nc(-c2cc(Cl)ccc2F)nc2ncccc12", "read by": "replicon", "cell line": "Huh7", "value": "0.76 µM"}
{"smiles": "C[C@H]1CCC[C@H](C)C1n1c(-c2ccco2)nc2cc(C(=O)NC3(C(=O)Nc4ccc(/C=C/C(=O)O)cc4)CCCC3)ccc21", "cell line": "Huh7", "value": "≤5 µM"}